# In patent US20090297521A1:
# Biological target: human CD33 (cell surface antigen, on U937, HL-60, THP-1, primary AML cells or transfected 293T cells) (human) (UniProt P20138)
# Test: cell-based or functional assay
substance,measurement,value
"CD33-ETA′ (recombinant anti-CD33 scFv-ETA′ immunotoxin, STREP-His-CD33-ETA-KDEL) (from UniProt P11439 277-633)","% cell death, MNCs of AML patient 1 (M4, BM, ~50% CD33+)",20%
same,"% cell death, MNCs of AML patient 2 (M1, PB, ~50% CD33+)",30%
same,"% cell death, MNCs of AML patient 3 (M1, PB, ~65% CD33+)",9%
same,"% cell death, MNCs of AML patient 4 (M4/M5, PB, ~70% CD33+)",9%
same,"% cell death, MNCs of AML patient 5 (M6, BM, ~80% CD33+)",0%
same,"% cell death, MNCs of AML patient 6 (M4, BM, ~80% CD33+)",6%
same,"% cell death, MNCs of AML patient 10 (M4, BM, ~25% CD33+; GM-CSF, IL-3)",19%
same,"dead U937 cells (Annexin V+, PI+) after 24 h, 100 ng/ml",18%
same,"dead U937 cells (Annexin V+, PI+) after 48 h, 100 ng/ml",53%
same,"dead U937 cells (Annexin V+, PI+) after 72 h, 100 ng/ml",84%
same,"early apoptotic U937 cells (Annexin V+, PI-) after 24 h, 100 ng/ml",36%
same,"early apoptotic U937 cells (Annexin V+, PI-) after 48 h, 100 ng/ml",17%
same,"early apoptotic U937 cells (Annexin V+, PI-) after 72 h, 100 ng/ml",8%
